Test system: S. aureus strain HG003

SMILES: CCCCCCCc1cc(O)c2ccccc2[n+]1[O-] [HQNO, 2-heptyl-4-hydroxyquinoline N-oxide]
- induction of tolerance to oxacillin, tobramycin and vancomycin: most robust tolerance

From patent publication US12594289B2, “Potentiation of antibiotic effect” (The University of North Carolina at Chapel Hill, priority 2017, dated 2026)
